Pooled drug test results. Numbers come from NIAID ChemDB, via PubChem.

Common to all: whole-cell or culture tests; organism: Human cytomegalovirus; endpoint: EC50

An empty or dashed field is not shown.

SMILES	strain	cells	method	value
CCCCCCCCCCCCCCCCCCOCCOP1(=O)CO[C@@H](Cn2ccc(N)nc2=O)CO1	C9208/3-3-1	MRC-5	plaque count	0.001 µM
Nc1nc2c(ncn2COC(CO)CO)c(=O)[nH]1	759RD100 (drug-resistant)	HFF	plaque count	113 µM
Nc1ncnc2c1ncn2C=C1CC1CO	Ganciclovir-resistant (UL97 mutation)	KB	-	3.8 µM
Nc1ccn(C[C@@H](CO)OCP(=O)(O)O)c(=O)n1	WILD TYPE	MRC-5	plaque count	0.68 µM
CC/C=C\Cn1c(=O)sc2c(=O)[nH]c(N)nc21	17517 (DHPG-S)	-	plaque count	0.16 µM
Cc1ccc(S(=O)(=O)NC(N)=NCCC[C@H](NC(=O)OCc2cccnc2)C(=O)N[C@H](C(=O)N[C@H](C=O)Cc2ccccc2)C(C)(C)C)cc1	DAVIS	HELF	plaque count	0.39 µM
NC(=O)c1c(Cl)c(-c2cccnc2)n2c1CCCC2	Clinical isolates	HEL	plaque count	0.005 µM
Nc1ccn(C[C@H]2COP(=O)(O)CO2)c(=O)n1	Toledo	MRC-5	plaque count	17.1 µM
Nc1ncnc2c1ncn2C=C1CC1CO	RCdelta97.19	-	plaque count	3.9 µM
OC[C@H]1O[C@@H](n2c(Br)nc3cc(Cl)c(Cl)cc32)[C@H](O)[C@@H]1O	AD169	HFF	plaque count	0.4 µM
OC[C@H]1O[C@@H](n2c(Br)nc3cc(Cl)c(Cl)cc32)[C@H](O)[C@@H]1O	C4 (D341E)	-	plaque count	33 µM
O=C(NCc1ccc(Cl)cc1)c1c[nH]c2ccc(CCCO)cc2c1=O	NEW	-	plaque count	1.3 µM
O=C(O)P(=O)(O)O	DER521 (ganciclovir cidofovir-resistant)	HEL	plaque count	77 µM
CC(C)Nc1nc2cc(Cl)c(Cl)cc2n1[C@H]1O[C@@H](CO)[C@H](O)[C@@H]1O	C8803	MRC-5	plaque count	0.21 µM
O[C@@H]1[C@H](O)[C@H](O)CO[C@H]1n1c(Br)nc2cc(Cl)c(Cl)cc21	DAVIS	HFF	plaque count	1.9 µM
Nc1nc2c(ncn2COC(CO)CO)c(=O)[nH]1	9330REC5 (HIS520GLU)	MRC-5	hybridisation	1.6 µM
COc1cccc(N2CCN(C3=Nc4c(F)cccc4[C@H](CC(=O)O)N3c3cc(C(F)(F)F)ccc3OC)CC2)c1	rGCV-2	-	plaque count	0.0016 µM

A second listing of 2 rows from above:

Nc1ncnc2c1ncn2C=C1CC1CO ; strain: RCdelta97.19 ; method: plaque count ; value: 3.9 µM
NC(=O)c1c(Cl)c(-c2cccnc2)n2c1CCCC2 ; strain: Clinical isolates ; cells: HEL ; method: plaque count ; value: 0.005 µM

ECn is the concentration giving n% inhibition of infection, replication or growth. Conditions beyond the fields shown may differ between rows.